A mixed list of measured activities; the numbers were collected in NIAID ChemDB.

All rows: growth or infection tests; species: HIV-1

Rows are shuffled and stem from different studies. ECn: concentration that inhibits the pathogen or its effect by n%. Blank or dashed fields: not listed here.

compound | conditions | measure | read by | mutations | strain or isolate | cells | value
C=C(C)[C@]1(O)C[C@@H](C)[C@@]2(O)[C@H]([C@H]1OC(=O)/C=C/C=C/CCCCC)[C@@H]1O[C@]1(CO)[C@@H](O)[C@]1(O)C(=O)C(C)=C[C@H]12 |  | EC50 | syncytia |  |  | C8166 | 0.02596 µM
Cc1cn(CC(=O)N[C@@H](Cc2ccccc2)C(=O)N(C)c2ccc(Cl)cc2)c(=O)[nH]c1=O |  | EC50 | GFP |  | NL4-3 | TZM-gfp | 1.7 µM
COc1cnc(-n2cnc(C)n2)c2c1c(C(=O)C(=O)N1CCN(C(=O)c3ccccc3)CC1)cn2COP(=O)(O)O |  | EC50 | luciferase |  | AD8 | U-87 | 0.0024 µM
Cc1ccc(N(C)C(=O)[C@H](Cc2ccccc2)NC(=O)CNC(=O)c2ccccc2)cc1 |  | EC50 | XTT |  | NL4-3 | TZM-gfp | 1.6 µM
CCc1ccc(CCN=C2NC(=O)/C(=C/c3ccc(-c4ccc(C(=O)O)c(O)c4)o3)S2)cc1 |  | EC50 | β-galactosidase |  | AD8 | TZM-bl | 0.85 µM
CCOCn1c(Cc2cccc(C(F)(F)F)c2)c(CC)c(=O)[nH]c1=O |  | EC50 | MTT | K103N + Y181C | A17 |  | 45 µM
Cc1ncc(-c2ccc(OCC3CCC3)cn2)c(N2CCC(C)(C)CC2)c1[C@H](OC(C)C)C(=O)O |  | EC50 | luminescence |  | NL4-3 | MT-2 | 0.005 µM
Cc1cn([C@H]2C=C[C@@H](CO)O2)c(=O)[nH]c1=O |  | EC90 | p24 | RT-T69SSS L210W T215Y | XM-T69SSS | MT-4 | 2.7 µM
CC(C)c1nc(CN(C)C(=O)N[C@@H](C(=O)NN(Cc2cccc(O)c2)C[C@H](O)[C@H](Cc2ccccc2)NC(=O)OCc2cncs2)C(C)C)cs1 |  | EC50 | cytopathic effect / MTT |  | IIIB | MT-4 | 1.37 µM
CC(C)=CCN1CCc2c[nH]c(=S)n2CC1 |  | EC50 | RT activity |  | LAI | CEM + CEM-SS | >100 µM
CC1CN(C(=O)C(=O)c2c[nH]c3cccc(F)c23)CCN1C(=O)c1ccccc1 | pseudotyped | EC50 | luciferase / reporter gene |  | LAI | HeLa | 0.0026 µM
Cc1ncc(-c2cnc(O[C@@H](C)C3CCC3)c(F)c2)c(N2CCC(C)(C)CC2)c1[C@H](OC(C)(C)C)C(=O)O |  | EC50 | luminescence |  | NL4-3 | MT-2 | 0.0193 µM
COc1cccc2[nH]cc(C(=O)C(=O)N3CCN(C(=O)c4ccccc4)CC3)c12 | pseudotyped | EC50 | luciferase / reporter gene |  | LAI | HeLa | 0.72 µM
C=C(C)COCn1c(Cc2cc(F)ccc2F)c(CC)c(=O)[nH]c1=O |  | EC50 | MTT |  | IIIB | MT-4 | 0.2 µM
O=C1NC(=NCc2ccc(Cl)c(Cl)c2)S/C1=C\c1ccc(-c2ccc(C(=O)O)c(O)c2)o1 |  | EC50 | β-galactosidase |  | NL4-3 | TZM-bl | 1.8 µM
Cc1ncc(-c2ccc(NCCOc3cc(F)cc(F)c3)cn2)c(N2CCC(C)(C)CC2)c1[C@H](OC(C)(C)C)C(=O)O |  | EC50 | luminescence |  | NL4-3 | MT-2 | 0.0079 µM
C#CCOCn1c(Cc2cc(C(F)(F)F)cc(C(F)(F)F)c2)c(CC)c(=O)[nH]c1=O |  | EC50 | MTT | K103N + Y181C | A17 | MT-4 | >100 µM
CC(C)c1nc(CN(C)C(=O)N[C@@H](C(=O)NN(CC2C=COC=C2)C[C@H](O)[C@H](Cc2ccccc2)NC(=O)OCc2cncs2)C(C)C)cs1 |  | EC50 | cytopathic effect / MTT |  | IIIB | MT-4 | 1.13 µM
Cc1cccc(Cl)c1OCCNc1ccc(-c2cnc(C)c([C@H](OC(C)(C)C)C(=O)O)c2N2CCC(C)(C)CC2)cn1 |  | EC50 | luminescence |  | NL4-3 | MT-2 | 0.005 µM
CC(C)(C)C1CN(C(=O)C(=O)c2c[nH]c3cccc(F)c23)CCN1C(=O)c1ccccc1 | pseudotyped | EC50 | luciferase / reporter gene |  | LAI | HeLa | >5 µM
CN(C(=O)[C@H](Cc1ccccc1)NC(=O)CNC(=O)c1ccccc1)c1ccc(Cl)cc1 |  | EC50 | GFP |  | NL4-3 | TZM-gfp | 0.88 µM
O=C1NC(=Nc2ccc(Cl)c(F)c2)S/C1=C\c1ccc(-c2ccc(C(=O)O)c(O)c2)o1 |  | EC50 | β-galactosidase |  | AD8 | TZM-bl | >10 µM
CC(C)CN(C[C@@H](O)[C@H](Cc1ccccc1)NC(=O)O[C@H]1CO[C@H]2OCC[C@H]21)S(=O)(=O)c1ccc2[nH]c(O)c(C=NCc3nc4ccccc4[nH]3)c2c1 |  | EC50 | MTT | L10 V32 M46 L63 A71 I84 |  | MT-4 | >0.4 µM
O=C1NC(=Nc2ccc(F)c(Cl)c2)S/C1=C\c1ccc(-c2ccc(C(=O)O)c(O)c2)o1 |  | EC50 | β-galactosidase |  | AD8 | TZM-bl | >10 µM
CC(C)(C)C1CN(C(=O)c2ccccc2)CCN1C(=O)C(=O)c1c[nH]c2cccc(F)c12 | pseudotyped | EC50 | luciferase / reporter gene |  | LAI | HeLa | >5 µM
Cc1ccc(OCCNc2ccc(-c3cnc(C)c([C@H](OC(C)(C)C)C(=O)O)c3N3CCC(C)(C)CC3)nc2)cc1 |  | EC50 | luminescence |  | NL4-3 | MT-2 | 0.0008 µM
CC1CN(C(=O)c2ccccc2)C(C)CN1C(=O)C(=O)c1c[nH]c2cccc(F)c12 | pseudotyped | EC50 | luciferase / reporter gene |  | LAI | HeLa | 0.0047 µM
CCOCn1c(Cc2cc(C(F)(F)F)cc(C(F)(F)F)c2)c(CC)c(=O)[nH]c1=O |  | EC50 | MTT | K103N + Y181C | A17 | MT-4 | >100 µM
O=C(C(=O)N1CCN(C(=O)c2ccccc2)CC1)c1c[nH]c2cccc(F)c12 | pseudotyped | EC50 | luciferase / reporter gene |  | LAI | HeLa | 2.9 µM
Nc1nc(NC2CC2)c2ncn([C@H]3C=C[C@@H](CO)C3)c2n1 |  | EC50 | p24 | RT-M41L D67N K70R T215Y K219Q | XM-AZT-resistant | PBMC | <4.5 µM
CCCCCC1CN(C(=O)c2ccccc2)CCN1C(=O)C(=O)c1c[nH]c2cccc(F)c12 | pseudotyped | EC50 | luciferase / reporter gene |  | LAI | HeLa | 0.855 µM
CC(C)CN(C[C@@H](O)[C@H](Cc1ccccc1)NC(=O)O[C@H]1CO[C@@H]2OCC[C@@H]21)S(=O)(=O)c1ccc2c(C=NCCN(C)C)c(O)[nH]c2c1 |  | EC50 | MTT |  |  |  | >0.4 µM
COc1cccc2[nH]cc(C(=O)C(=O)N3CCN(C(=O)c4ccccc4)C[C@H]3C)c12 | pseudotyped | EC50 | luciferase / reporter gene |  | LAI | HeLa | 0.00093 µM
Cc1ncc(-c2ccc(OC3Cc4ccccc4C3)cn2)c(N2CCC(C)(C)CC2)c1[C@H](OC(C)(C)C)C(=O)O |  | EC50 | luminescence |  | NL4-3 | MT-2 | 0.0024 µM
C[C@H]1CN(C(=O)c2ccccc2)CCN1C(=O)C(=O)c1c[nH]c2cccc(F)c12 | pseudotyped | EC50 | luciferase / reporter gene |  | JR-FL | HeLa | 0.00158 µM
CN(C(=O)[C@H](Cc1ccccc1)NC(=O)c1c[nH]c(=O)[nH]c1=O)c1ccccc1 |  | EC50 | GFP |  | NL4-3 | TZM-gfp | >20 µg/mL

The first 2 rows once more:

compound,conditions,measure,read by,mutations,strain or isolate,cells,value
C=C(C)[C@]1(O)C[C@@H](C)[C@@]2(O)[C@H]([C@H]1OC(=O)/C=C/C=C/CCCCC)[C@@H]1O[C@]1(CO)[C@@H](O)[C@]1(O)C(=O)C(C)=C[C@H]12,,EC50,syncytia,,,C8166,0.02596 µM
Cc1cn(CC(=O)N[C@@H](Cc2ccccc2)C(=O)N(C)c2ccc(Cl)cc2)c(=O)[nH]c1=O,,EC50,GFP,,NL4-3,TZM-gfp,1.7 µM